From article PMC12194669, “The Conopeptide αD-FrXXA, an Inhibitor of Voltage-Gated Potassium Channels” (2025)
“And” between values parts separate entries of the source, which are not always exact repeats. Equal entries are not always repeated.

Protein sequences, listed by entry. Tags and fused reporters are not part of them.
UniProt P17658, whole entry, looked up: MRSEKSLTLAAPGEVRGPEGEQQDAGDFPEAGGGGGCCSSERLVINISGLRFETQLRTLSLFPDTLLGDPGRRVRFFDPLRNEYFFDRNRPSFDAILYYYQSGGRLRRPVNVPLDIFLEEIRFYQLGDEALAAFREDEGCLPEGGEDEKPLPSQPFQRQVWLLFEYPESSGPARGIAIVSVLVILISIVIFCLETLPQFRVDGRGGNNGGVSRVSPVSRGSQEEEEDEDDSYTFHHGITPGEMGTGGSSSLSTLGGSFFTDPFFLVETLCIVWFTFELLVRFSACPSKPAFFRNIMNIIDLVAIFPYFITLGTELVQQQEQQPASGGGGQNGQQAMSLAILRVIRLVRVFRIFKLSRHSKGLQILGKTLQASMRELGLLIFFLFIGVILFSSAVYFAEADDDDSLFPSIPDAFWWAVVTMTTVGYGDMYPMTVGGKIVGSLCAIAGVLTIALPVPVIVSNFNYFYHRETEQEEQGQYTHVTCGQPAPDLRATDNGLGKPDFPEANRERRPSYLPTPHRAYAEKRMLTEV
UniProt P22001, whole entry, looked up: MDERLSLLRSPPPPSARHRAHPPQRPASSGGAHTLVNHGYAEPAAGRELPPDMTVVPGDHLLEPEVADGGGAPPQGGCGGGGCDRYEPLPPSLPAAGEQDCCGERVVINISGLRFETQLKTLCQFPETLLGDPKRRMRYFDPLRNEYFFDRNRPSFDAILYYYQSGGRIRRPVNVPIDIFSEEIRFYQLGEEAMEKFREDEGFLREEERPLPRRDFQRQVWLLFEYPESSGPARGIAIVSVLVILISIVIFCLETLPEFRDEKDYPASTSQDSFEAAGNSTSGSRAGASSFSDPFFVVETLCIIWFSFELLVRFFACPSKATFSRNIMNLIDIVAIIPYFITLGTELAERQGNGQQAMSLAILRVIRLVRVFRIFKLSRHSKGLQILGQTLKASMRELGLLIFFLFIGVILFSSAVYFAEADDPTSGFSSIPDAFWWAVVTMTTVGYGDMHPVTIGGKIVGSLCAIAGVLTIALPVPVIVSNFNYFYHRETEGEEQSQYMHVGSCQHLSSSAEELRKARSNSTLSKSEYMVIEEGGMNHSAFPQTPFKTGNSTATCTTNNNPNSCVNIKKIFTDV

What was measured:
[1] = system: human Kv1.4
[2] = system: human Kv1.5
[3] = system: hα4β2 nAChR; settings: read-out: IC50 on hα4β2 nAChR; acetylcholine-induced response; cited from earlier work
[4] = biological target: human Kv1.6 (Homo sapiens, UniProt P17658); settings: 15 μM; washings longer than sixty minutes
[5] = system: mouse fetal muscle nAChR (m(α1)2β1δγ); settings: read-out: IC50 on mouse fetal muscle nAChR (m(α1)2β1δγ); acetylcholine-induced response; cited from earlier work
[6] = biological target: human Kv1.3 (Homo sapiens, UniProt P22001); settings: 15 μM; washings longer than sixty minutes
[7] = system: human Kv10.1
[8] = system: human Kv11.1; settings: 15 μM; first five minutes of washing
[9] = system: mouse adult muscle nAChR (m(α1)2β1δε); settings: read-out: IC50 on mouse adult muscle nAChR (m(α1)2β1δε); acetylcholine-induced response; cited from earlier work
[10] = system: hα3β2 nAChR; settings: read-out: IC50 on hα3β2 nAChR; acetylcholine-induced response; cited from earlier work
[11] = system: hα7 nAChR; settings: read-out: IC50 on hα7 nAChR; acetylcholine-induced response; cited from earlier work
[12] = 15 μM αD-FrXXA, TEVC, pulses to +10 mV from −80 mV, mean ± S.E.M., n ≥ 3
[13] = 15 μM, first five minutes of washing

CC[C@H](C)[C@H](NC(=O)[C@H](CCCNC(=N)N)NC(=O)[C@H](C)NC(=O)[C@@H](N)CCC(=O)O)C(=O)N[C@H](C(=O)N[C@H]1CSSC[C@@H](C(=O)N[C@H]2CSSC[C@@H]3NC(=O)[C@H](Cc4ccc(O)cc4)NC(=O)[C@H](CC(N)=O)NC(=O)CNC(=O)[C@H](CSSC[C@@H]4NC(=O)[C@H](CCCNC(=N)N)NC(=O)[C@@H]5CSSC[C@@H](C(=O)O)NC(=O)[C@H](CO)NC(=O)[C@H](CSSC[C@H](NC3=O)C(=O)N[C@@H](Cc3ccc(O)cc3)C(=O)N[C@@H](CCCCN)C(=O)N[C@@H](Cc3c[nH]cn3)C(=O)NCC(=O)N5)NC(=O)CNC(=O)[C@H](Cc3c[nH]cn3)NC(=O)CNC(=O)[C@H](CCCNC(=N)N)NC(=O)[C@H](Cc3c[nH]c5ccccc35)NC(=O)[C@H](CO)NC(=O)[C@H](Cc3c[nH]cn3)NC(=O)[C@H](Cc3ccc(O)cc3)NC(=O)[C@H](C(C)C)NC4=O)NC(=O)[C@H](CCSC)NC(=O)[C@H](CCC(N)=O)NC(=O)[C@H]([C@@H](C)O)NC(=O)[C@H](CC(C)C)NC2=O)NC(=O)[C@H](CCCNC(=N)N)NC(=O)CNC(=O)[C@H](Cc2c[nH]c3ccccc23)NC(=O)[C@H](CCCCN)NC(=O)[C@H](CO)NC(=O)[C@H](CCCNC(=N)N)NC(=O)CNC(=O)[C@H](CCCNC(=N)N)NC(=O)[C@@H]2CCCN2C(=O)[C@H](CCC(N)=O)NC(=O)[C@@H](NC(=O)[C@@H](NC(=O)[C@@H](NC(=O)[C@H](CCCNC(=N)N)NC(=O)[C@H](C)NC(=O)[C@@H](N)CCC(=O)O)[C@@H](C)CC)[C@@H](C)O)CSSC[C@@H](C(=O)N[C@H]2CSSC[C@@H]3NC(=O)[C@H](Cc4ccc(O)cc4)NC(=O)[C@H](CC(N)=O)NC(=O)CNC(=O)[C@H](CSSC[C@@H]4NC(=O)[C@H](CCCNC(=N)N)NC(=O)[C@@H]5CSSC[C@@H](C(=O)O)NC(=O)[C@H](CO)NC(=O)[C@H](CSSC[C@H](NC3=O)C(=O)N[C@@H](Cc3ccc(O)cc3)C(=O)N[C@@H](CCCCN)C(=O)N[C@@H](Cc3c[nH]cn3)C(=O)NCC(=O)N5)NC(=O)CNC(=O)[C@H](Cc3c[nH]cn3)NC(=O)CNC(=O)[C@H](CCCNC(=N)N)NC(=O)[C@H](Cc3c[nH]c5ccccc35)NC(=O)[C@H](CO)NC(=O)[C@H](Cc3c[nH]cn3)NC(=O)[C@H](Cc3ccc(O)cc3)NC(=O)[C@H](C(C)C)NC4=O)NC(=O)[C@H](CCSC)NC(=O)[C@H](CCC(N)=O)NC(=O)[C@H]([C@@H](C)O)NC(=O)[C@H](CC(C)C)NC2=O)NC(=O)[C@H](CCCNC(=N)N)NC(=O)CNC(=O)[C@H](Cc2c[nH]c3ccccc23)NC(=O)[C@H](CCCCN)NC(=O)[C@H](CO)NC(=O)[C@H](CCCNC(=N)N)NC(=O)CNC(=O)[C@H](CCCNC(=N)N)NC(=O)[C@@H]2CCCN2C(=O)[C@H](CCC(N)=O)NC1=O)[C@@H](C)O
Current Inhibition (%) Kv1.4 [1, 12]: 50.62 ± 8.00% and ≈ 50% | Reversibility of the effect on washing, Kv1.4 ([1]; 15 μM, washings longer than sixty minutes): irreversible | Current Inhibition (%) Kv1.5 [2, 12]: 56.23 ± 3.68% and ≈ 50% | Reversibility of the effect on washing, Kv1.5 [2, 13]: completely reversible | IC50 [3]: 697 nM | Reversibility of the effect on washing, Kv1.6 [4]: irreversible | IC50 [5]: 447 nM | Reversibility of the effect on washing, Kv1.3 [6]: irreversible | Current Inhibition (%) Kv10.1 [7, 12]: 17.88 ± 1.28% and < 20% | Reversibility of the effect on washing, Kv10.1 [7, 13]: completely reversible | Reversibility of the effect on washing, Kv11.1 [8]: completely reversible | IC50 [9]: 351 nM | IC50 [10]: 282 nM | IC50 [11]: 125 nM
